Measurements from ChEMBL document CHEMBL6134901 (J Med Chem, 2025).

Assay: Selectivity ratio of IC50 for inhibition of bacterial CspB to Kd for binding affinity to bacterial CspB assessed as dissociation constant

In the case of `Cl.NCc1ccc(-c2nc(-c3ccnc(Oc4ccc(C(F)(F)F)cc4)c3)no2)cc1`, the Ratio is reported as 3.9.
